Data reported in patent publication US20040102431A1, “Substituted amino-aza-cycloalkanes useful against malaria” (priority 2000, published 2004).

By UniProt entry, the sequences of proteins in these tests, tags left out. Residues count along the entry.
UniProt P46925, 125-453 limits assumed: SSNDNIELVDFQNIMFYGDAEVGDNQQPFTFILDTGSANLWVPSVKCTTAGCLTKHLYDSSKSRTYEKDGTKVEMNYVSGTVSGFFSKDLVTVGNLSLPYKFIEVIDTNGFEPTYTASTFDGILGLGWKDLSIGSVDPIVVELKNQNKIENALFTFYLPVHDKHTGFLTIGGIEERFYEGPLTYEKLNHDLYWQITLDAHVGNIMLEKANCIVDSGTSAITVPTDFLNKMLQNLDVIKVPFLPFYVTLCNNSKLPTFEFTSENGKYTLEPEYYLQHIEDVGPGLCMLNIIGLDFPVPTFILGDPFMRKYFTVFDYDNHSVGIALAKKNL

Biological target: plasmepsin II (Plasmodium falciparum, UniProt P46925)
Assay: fluorescence resonance energy transfer (FRET) assay for plasmepsin II
Assay type: biochemical
Settings: read-out: IC50 (nM) on plasmepsin II, Additional Examples table, pH 5, 37° C., 40 min, substrate 1 μM

CCCCCc1ccc(C(=O)N(Cc2ccc(-c3ccccc3)cc2)C2CCN(CCc3ccccc3)CC2)cc1
IC50: 433 nM
